Source: ChEMBL document CHEMBL3137667, “[Drug-induced liver injury; fourteenth updated edition of the bibliographic database of liver injuries and related drugs]” (Gastroenterol Clin Biol, 2004)

What was measured:
[1] = human
[2] = human; remark: listed apart in the source
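Throughout, for Hepatotoxicity (granulomatous hepatitis): value is a count of indexed literature references reporting granulomatous liver disease confirmed by histopathology.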
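Throughout, for Hepatotoxicity (severe hepatitis): human clinical data: severe hepatitis, meaning potentially life-threatening liver failure or clinically observed cases, the value counts how many indexed literature references report it.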

FLUPENTIXOL
Hepatotoxicity (severe hepatitis) [1]: 1
Hepatotoxicity (granulomatous hepatitis) [2]: 0
